Anti-infective test results gathered from many reports (values: NIAID ChemDB through PubChem).

Shared fields: growth or infection tests; organism: Mycobacterium tuberculosis

Conditions beyond the fields shown may differ between rows. MIC bound: limit read from a one-dose screen. MIC50, MIC90 and the like: level of inhibition, or share of isolates inhibited. ECn is the concentration giving n% inhibition of infection, replication or growth. Inhibition is in % at the dose shown (toxicity tests: loss of growth or viability). Blank or dashed fields: not listed here.

compound,read by,mutations,dose,strain,endpoint,setting,value
O=C(O)c1cn(C2CC2)c2cc(N3CCN(C/C(=N/O)c4cccs4)CC3)c(F)cc2c1=O,,,,H37Rv,MIC,,>6.25 µg/mL
CC(C)N1CCN(c2nc(Nc3ccc(C#N)c(C(F)(F)F)c3)nc(Oc3cccc4cccnc34)n2)CC1,BACTEC,,,H37Rv,MIC,,>6.25 µg/mL
NCCCC[C@H](N)C(=O)N[C@@H](CB(O)O)Cc1ccccc1,agar,,,H37Rv,MIC,,≤50 µg/mL
CC(C)(O)[C@H]1CC[C@]2(C)[C@H]3CC[C@@H]4[C@@]5(C)CCCC(C)(C)[C@@H]5[C@@H](O)C[C@@]4(C)[C@]3(C)CC[C@@H]12,,,,H37Rv,MIC,,8 µM
c1ccc(-n2cc(CSC3c4ccccc4-c4ccccc43)nn2)cc1,broth dilution,,,H37Rv,MIC99,,141 µM
Cc1ccccc1CSc1ncnc2nc[nH]c12,,,,H37Rv,MIC90,,>6.25 µg/mL
O=c1cc(-c2ccccc2)nc(Nc2nc3ccc([N+](=O)[O-])cc3[nH]2)[nH]1,BACTEC,,,H37Rv,MIC bound,,>6.25 µg/mL
O=[N+]([O-])c1ccccc1-n1cc(CSC2c3ccccc3-c3ccccc32)nn1,broth dilution,,,Specimen 192,MIC99,,>250 µM
CCn1cc(C(=O)O)c(=O)c2cc(F)c(N3CCN(C/C(=N/OCc4ccccc4)c4cccs4)CC3)cc21,,,6.25 µg/mL,H37Rv,inhibition,,48%
Cc1ccc2nccc(NC(=S)Nc3ccc(Cl)cc3)c2c1,,,,Strain 1 (MDR),MIC,,0.5 µg/mL
COc1ccc(Sc2ccncc2)cc1OC,,,,H37Rv,MIC90,,>6.25 µg/mL
CCCCCCCNC(=O)NNC(=O)c1ccncc1,broth dilution,,,My 331/88,MIC100,14 d,16 µM
COC(=O)Cc1cc(C2CCCC2)nc2ccccc12,,,6.25 µg/mL,H37Rv,inhibition,,3%
CC(C(=O)NN)C1(O)CCCCC1,BACTEC,,12.5 µg/mL,H37Rv,inhibition,,10%
COC(=O)Cc1cc(C2CCCC2)nc2c(C3CCCC3)cccc12,,,6.25 µg/mL,H37Rv,inhibition,,3%
O=C(O)c1cc2ccccc2o1,BACTEC,,6.25 µg/mL,H37Rv,inhibition,,0%
Cc1ccc2nc(-c3ccccc3)cc(Nc3cccc(O)c3)c2c1,,,,Strain 2 (MDR),MIC,,>4 µg/mL
C/C=C/CCNNC(=O)c1ccncc1,,,,BCG,MIC,,0.02 µg/mL
O=C(O)c1c(C2CCCCC2)nc2ccccc2c1C1CCCCC1,,,,H37Rv,MIC,,>6.25 µg/mL
O=c1nc(NCCc2c[nH]c3ccccc23)ccn1C1OC(CO)C(O)C1O,BACTEC,,12.5 µg/mL,H37Rv,inhibition,,8%
C=C1C(=O)O[C@H]2C[C@@H](C)[C@@H]3C=CC(=O)[C@@]3(C)C[C@H]12,,,,H37Rv,MIC,,16 µg/mL
COc1ccc(C2C3C(=O)OCCOC(=O)C3C2c2ccc(OC)c(OC)c2)cc1OC,BACTEC,,,H37Rv,MIC bound,,>12.5 µg/mL
NNC(=O)c1ccncc1,broth dilution,Ethambutol-resistant,,17003,MIC80,,0.2 µM
CCCCn1c(-c2cc3ccccc3oc2=O)cs/c1=N\N=C\c1cc(Br)ccc1O,,,,H37Rv,EC50,,>12.5 µg/mL
CCO/C=N/Nc1ccc2nnc(Cl)n2n1,BACTEC,,12.5 µg/mL,H37Rv,inhibition,,0%
O=C(NNC(=O)c1ccncc1)Nc1ccc(Cl)c(Cl)c1,broth dilution,,,My 331/88,MIC100,21 d,125 µM
O=S(=O)(Nc1ccnn1-c1ccccc1)c1ccc(Nc2ccnc3ccc(Cl)cc23)cc1,,,,Strain 2 (MDR),MIC,,4 µg/mL
CO[C@H]1/C=C/O[C@@]2(C)Oc3c(C)c(O)c4c(O)c(c5c(c4c3C2=O)NC2(CCN(CC(C)C)CC2)N=5)=NC(=O)/C(C)=C\C=C\[C@H](C)[C@H](O)[C@@H](C)[C@@H](O)[C@@H](C)[C@H](OC(C)=O)[C@@H]1C,,,,15 (rifampicin-susceptible),MIC,,≤0.062 µg/mL
CCn1cc(C(=O)O)c(=O)c2cc(F)c(N3CCN(C/C(=N/O)c4ccco4)CC3)cc21,,,6.25 µg/mL,H37Rv,inhibition,,29%
COc1cccc2c(NC(=S)Nc3cccc([N+](=O)[O-])c3)ccnc12,,,,Strain 2 (MDR),MIC,,2 µg/mL
CCOC(=O)Cc1cc(C2CCCCC2)nc2c(C3CCCCC3)cccc12,,,6.25 µg/mL,H37Rv,inhibition,,99%
C=C1C(=O)O[C@@H]2C1[C@@H](OC(C)=O)C[C@H](C)[C@@H]1CCC(=O)[C@@]21C,,,,H37Rv,MIC,,128 µg/mL
N#Cc1ccc(Nc2nc(Oc3cccc4cccnc34)nc(N3CCN(Cc4ccccc4)CC3)n2)cc1C(F)(F)F,agar,,,H37Rv,MIC95,,200 µg/mL
CCOc1cc(/C=N/N=c2\scc(-c3cc4ccccc4oc3=O)n2CC)ccc1O,,,,H37Rv,MIC,,<12.5 µg/mL
C=C(C)[C@@H]1CC[C@]2(CO)CC[C@]3(C)[C@H](CC[C@@H]4[C@@]5(C)CC[C@H](O)C(C)(C)[C@@H]5CC[C@]43C)[C@@H]12,,,,H37Rv,MIC,,32 µM
N#CCC(=O)N/N=C1\C(=O)N(c2ccc(Cl)cc2)C(=O)C(=O)C1c1nc2ccccc2s1,BACTEC,,12.5 µg/mL,H37Rv,inhibition,,-3%
NNC(=O)C(c1ccccc1)c1ccccc1,,,,BCG,MIC,,100 µg/mL
Cc1cccc(CSc2ccccn2)c1,,,,H37Rv,MIC90,,>6.25 µg/mL
C[C@@H](NC(=O)[C@@H](N)CCCCN)[C@@H](Cc1ccccc1)B1OC2CC3CC(C3(C)C)[C@@]2(C)O1,agar,,,H37Rv,MIC,,≤50 µg/mL
CC1CCCN(CC(O)CN2C[C@@H](C)N(CC(O)CN3CCCC(C)C3)[C@H](C)C2)C1,BACTEC,,,H37Rv,MIC,,≥12.8 µg/mL
O=C(NNS(=O)(=O)O)c1ccncc1,,,,BCG,MIC,,600 µg/mL
N#Cc1ccc(Nc2nc(Oc3cccc4cccnc34)nc(N3CCN(c4ccccc4)CC3)n2)cc1C(F)(F)F,agar,,,H37Rv,MIC96,,500 µg/mL
COC(=O)C1=C(c2cc(OC)c(OC)c(OC)c2)OC(c2cc(OC)c(OC)c(OC)c2)C1COC(C)=O,BACTEC,,,H37Rv,MIC bound,,>12.5 µg/mL
Nc1ccc(S(=O)(=O)Nc2ccnn2-c2ccccc2)cc1,,,,Strain 2 (MDR),MIC,,>4 µg/mL
C=C1C(=O)O[C@@H]2C[C@@]3(C)CCC(=O)C(C)=C3C[C@H]12,,,,H37Rv,MIC,,128 µg/mL
CC(=O)Nc1nc(=O)n(CC(=O)c2cccs2)cc1F,resazurin,,,H37Rv,MIC bound,,>6.25 µg/mL
COc1nc2ccc(Br)cc2cc1[C@@H](c1ccccc1)[C@@](O)(CCN(C)C)c1cccc2ccccc12,broth dilution,Ofloxacin-resistant,,12119,MIC80,,<2 µM
Fc1cc(Nc2nnc(-c3ccncc3)o2)ccc1Br,broth dilution,,,My 331/88,MIC100,14 d,>125 µM
CCC(CNNC(=O)c1ccncc1)NNC(=O)c1ccccc1,,,,BCG,MIC,,0.5 µg/mL
CCOC(=O)Cn1c(O)c(C2=c3ccccc3=NC2=O)sc1=O,BACTEC,,12.5 µg/mL,H37Rv,inhibition,,0%
CC1(C)C2CC3OB(C[C@@H](CCc4ccccc4)NC(=O)[C@@H](N)CCCCN)O[C@]3(C)C1C2,agar,,,H37Rv,MIC,,≤500 µg/mL
O=C1CC(N2C(=O)C3C4CCC(CC4)C3C2=O)C(=O)N1,BACTEC,,12.5 µg/mL,H37Rv,inhibition,,-1%
O=C(NNC(=O)c1ccncc1)Nc1ccc(F)cc1Br,broth dilution,,,My 331/88,MIC100,14 d,16 µM
CCCc1cc(=O)oc2c3c(c4c(c12)OC(C)(C)C=C4)O[C@H](C)[C@@H](C)C3=O,,,6.25 µg/mL,H37Rv,inhibition,,7%
C=CCn1c(-c2cc3cc(Br)ccc3oc2=O)cs/c1=N\N=C\c1ccc(Cl)cc1,,,,H37Rv,EC50,,<12.5 µg/mL
O=C(O)c1ccc2ccccc2n1,,,,H37Rv,MIC,,>6.25 µg/mL
CCn1cc(C(=O)O)c(=O)c2cc(F)c(N3CCN(C/C(=N/OCc4ccccc4)c4ccco4)CC3)cc21,,,,H37Rv,MIC,,>6.25 µg/mL
Clc1nc(Sc2ncc[nH]2)c2[nH]cnc2n1,,,,H37Ra,MIC,,>12.8 µg/mL
Cc1noc(NS(=O)(=O)c2ccc(N=Nc3cc(N=Nc4ccc(S(=O)(=O)Nc5onc(C)c5C)cc4)c4c(NC(=O)C(Cl)Cl)cccc4c3OC(=O)C(Cl)Cl)cc2)c1C,BACTEC,,,H37Rv,MIC bound,,>12.5 µg/mL
c1ccc(CSc2ncccn2)cc1,,,,H37Rv,MIC90,,>6.25 µg/mL
CCc1ccc(-n2cc(CNC3c4ccccc4-c4ccccc43)nn2)cc1,broth dilution,,,H37Rv,MIC99,,136 µM
CC(C)CCC[C@@H](C)CCC[C@@H](C)CCCC(C)(O)C(O)CO,,,,H37Rv,MIC,,16 µg/mL
CCN1CCN(c2nc(Nc3ccc(C#N)c(C(F)(F)F)c3)nc(Oc3cccc4cccnc34)n2)CC1,agar,,,H37Rv,MIC98,,200 µg/mL
Cc1ccc(NC2=NCCS2)cc1Cl,BACTEC,,,H37Rv,MIC bound,,>12.5 µg/mL
Cc1ccc(NC(=O)NNC(=O)c2ccncc2)cc1,broth dilution,,,My 331/88,MIC100,21 d,62.5 µM
CO[C@H]1/C=C/O[C@@]2(C)Oc3c(C)c(O)c4c(O)c(c(/C=N/N5CCN(C)CC5)c(O)c4c3C2=O)NC(=O)/C(C)=C\C=C\[C@H](C)[C@H](O)[C@@H](C)[C@@H](O)[C@@H](C)[C@H](OC(C)=O)[C@@H]1C,broth dilution,Streptomycin-resistant,,35820,MIC80,,0.04 µM
O=C(O)/C=C/C(=O)NNc1nc2ccccc2s1,BACTEC,,,H37Rv,MIC bound,,>12.5 µg/mL
N[C@@H](Cc1ccccc1)C(=O)N[C@@H](CB(O)O)Cc1ccccc1,agar,,,H37Rv,MIC,,≤500 µg/mL
O=C1Nc2ccccc2C12C=C(c1ccccc1)Nc1ccc(F)cc1S2,,,12.5 µg/mL,,inhibition,,98%
O=C(O)c1cnc2ccccc2c1C1C2CC3CC(C2)CC1C3,,,6.25 µg/mL,H37Rv,inhibition,,0%
Clc1ccc(-n2cc(CSC3c4ccccc4-c4ccccc43)nn2)cc1,broth dilution,,,Specimen 192,MIC99,,74.2 µM
Cc1ncc(C(=O)NN)c(=O)[nH]1,,,,BCG,MIC,,400 µg/mL
CN1CCN(c2nc(Nc3ccc(C#N)c(C(F)(F)F)c3)nc(Oc3cccc4cccnc34)n2)CC1,BACTEC,,,H37Rv,MIC,,>6.25 µg/mL
CCC(=O)N1C(=O)C(C)C23c4cccc([N+](=O)[O-])c4C(=O)N2CCCN13,BACTEC,,12.8 µg/mL,H37Rv,inhibition,,5%
C=C1C(=O)O[C@@H]2C[C@H](C)[C@@H]3[C@@H](O)CC(=O)[C@@]3(C)C[C@H]12,,,,H37Rv,MIC,,128 µg/mL
CCCCCCCCCCCCCCCC(=O)OC[C@H]1O[C@@](COC(=O)CCCCCCCCCCCCCCC)(O[C@H]2O[C@H](COC(=O)CCCCCCCCCCCCCCC)[C@@H](OC(=O)CCCCCCCCCCCCCCC)[C@H](OC(=O)CCCCCCCCCCCCCCC)[C@H]2OC(=O)CCCCCCCCCCCCCCC)[C@@H](OC(=O)CCCCCCCCCCCCCCC)[C@@H]1OC(=O)CCCCCCCCCCCCCCC,BACTEC,,12.5 µg/mL,H37Rv,inhibition,,7%
C=CCn1c(-c2cc3cc(Br)ccc3oc2=O)cs/c1=N\N=C\c1ccc(O)c(OCC)c1,,,12.5 µg/mL,H37Rv,inhibition,,91%
CC(C)CCC[C@@H](C)CCC[C@@H](C)CCCC(C)CCO,,,,H37Rv,MIC,,2 µg/mL
COc1ccc2c(c1)OC(C)(C)C(c1ccccc1)=C2c1ccc2c(c1)NC(=O)CO2,BACTEC,,12.5 µg/mL,H37Rv,inhibition,,49%
O=C(NNC(=O)c1ccncc1)Nc1ccc(F)c(Cl)c1,broth dilution,,,My 331/88,MIC100,14 d,62.5 µM
C=C[C@](C)(O)CC[C@@H]1[C@@]2(C)CCCC(C)(C)[C@@H]2CC[C@@]1(C)O,,,,H37Rv,MIC,,6 µg/mL
CC(C)(C)OC(=O)Nc1cccc(Cl)c1,BACTEC,,,H37Rv,MIC,,>12.5 µg/mL
O=C(O)Cc1cc(C2CCCCC2)nc2c(C3CCCCC3)cccc12,,,6.25 µg/mL,H37Rv,inhibition,,9%

For reference, 7 entries again:

compound	read by	mutations	dose	strain	endpoint	setting	value
Clc1ccc(-n2cc(CSC3c4ccccc4-c4ccccc43)nn2)cc1	broth dilution			Specimen 192	MIC99		74.2 µM
Nc1ccc(S(=O)(=O)Nc2ccnn2-c2ccccc2)cc1				Strain 2 (MDR)	MIC		>4 µg/mL
CC1(C)C2CC3OB(C[C@@H](CCc4ccccc4)NC(=O)[C@@H](N)CCCCN)O[C@]3(C)C1C2	agar			H37Rv	MIC		≤500 µg/mL
Clc1nc(Sc2ncc[nH]2)c2[nH]cnc2n1				H37Ra	MIC		>12.8 µg/mL
COC(=O)C1=C(c2cc(OC)c(OC)c(OC)c2)OC(c2cc(OC)c(OC)c(OC)c2)C1COC(C)=O	BACTEC			H37Rv	MIC bound		>12.5 µg/mL
Cc1ccc(NC(=O)NNC(=O)c2ccncc2)cc1	broth dilution			My 331/88	MIC100	21 d	62.5 µM
COc1cccc2c(NC(=S)Nc3cccc([N+](=O)[O-])c3)ccnc12				Strain 2 (MDR)	MIC		2 µg/mL